{"source": "paper PMC5467316", "about": "“Antiviral Activity of Fridericia formosa (Bureau) L. G. Lohmann (Bignoniaceae) Extracts and Constituents” (Journal of Tropical Medicine, 2017)", "key": {"[1]": {"tested_on": "human herpes virus 1 (HSV-1)", "assay_type": "cell-based", "settings": "selectivity index, CC50 over EC50"}, "[2]": {"tested_on": "dengue virus type 2 (DENV-2)", "assay_type": "cell-based", "settings": "selectivity index, CC50 over EC50"}}, "data": [{"smiles": "O=c1c2cc(O)c(O)cc2oc2cc(O)c([C@@H]3O[C@H](CO)[C@@H](O)[C@H](O)[C@H]3O)c(O)c12", "note": "[Mangiferin (1), 2-β-D-Glucopyranosyl-1,3,6,7-tetrahydroxy-9H-xanthen-9-one]", "values": [{"measurement": "SI (HSV-1)", "setting": "[1]", "result": ">1.9"}, {"measurement": "SI (DENV-2)", "setting": "[2]", "result": ">1.9"}]}, {"smiles": "O=c1cc(-c2ccccc2)oc2cc(O)cc(O)c12", "note": "[Chrysin (4), 5,7-Dihydroxy-2-phenyl-4H-1-benzopyran-4-one]", "values": [{"measurement": "SI (HSV-1)", "setting": "[1]", "result": ">3.4"}]}]}
